According to patent US20250066456A1 (NOVAVAX, published 2025):
Where two headings read alike, the source gives them in different places.

Experiments:
rS D614G (Wuhan) [1] = experiment: ELISA, plate coated with rS, serial dilution of the mAb, anti-mouse HRP, A450
rS D614G (Wuhan) [2] = experiment: as above; remark: listed apart in the source

Binder | EC50 (rS D614G (Wuhan) [1]) [µg/mL] | EC50 (rS D614G (Wuhan) [2]) [µg/mL]
322.3 (antibody, V domains shown) VH: RVQLQQSGPELVKPGASVTISCKASGYIFTSDYIHWVKQRPGQGPEWIGWIYPGNINTKYNEKFKGKATLTADKSSSTAYMQLSSLTSEDSAVYFCARDDGNLYYYAMDYWGQGTSVTVSS VL: NIVLTQSPASLAVSLGQRATISCRASESVDSYGSSFMHWYQQKPGQPPKLLIYLASNLESGVPARFSGSGSRTDFTLTIDPVEADDAATYYCQQNNEDPRTFGGGTKLEIK | 0.029 | 
425.6 (antibody, V domains shown) VH: VQLKQSGPSLVQPSQSLSITCTVSGFSLTSYGIHWVRQSPGKGLEWLGVIWRGGSTDYNAAFMSRLTITKDNSKSQVFFKMNSLQADDTAIYYCATHTEGDDVDYWGQGTSVTVSS VL: QIVLTQSPAIMSVSPGEKVTMTCSASSTMSFMYWYQQKPGSSPRLLIYDTSNLASGVPVRFSGSGSGTSYSLTISRVEAEDAATYYCQQWNTYPLTFGAGTKLELKR |  | 0.01
